Data set [1] relates to T1, #116: [4-Mu]TRIDEANQRATK[DABCYL]-Nle, BoNT/A cleavable peptide.
T1 sequence: TRIDEANQRATKX

Data set [2] relates to T2, #115: [5-Fam]TRIDEANQRATK[DABCYL]-Nle, BoNT/A cleavable peptide.
T2 sequence: TRIDEANQRATKX

Take “Botulinum neurotoxin type A (BoNT/A), form not stated”: the KM in data set [1] turned out to be 2.62 µM; in data set [2], 4.99 µM.

As for Trypsin, the KM in data set [1] amounted to 3.4 µM; in data set [2] it was 9.67 µM.
